The subject of the assay is JEV strain AT31. In words: microbe, parasite or virus in culture. Particulars: Japanese encephalitis virus, 24 h, Primary screening of 1034 compounds in the natural extracts library.

By inhibition is commonly meant the change of the read-out against control, counted positive when it falls.

Counter-ions that a name gives are not always drawn.

Consider `COC(=O)C1=CO[C@@H](O[C@@H]2O[C@H](CO)[C@@H](O)[C@H](O)[C@H]2O)[C@@H]2C(CO)=CC[C@H]12` [geniposide], for which the inhibition at 50 µM was determined as 12.4%. Turning to `COc1c2occc2cc2ccc(=O)oc12` [8-Methoxypsoralen], the inhibition at 50 µM worked out at 3.57%. Then `C[C@]12CC[C@H](O)C[C@H]1CC[C@@H]1[C@@H]2CC[C@]2(C)[C@@H](c3ccc(=O)oc3)C[C@H]3O[C@]132` [Resibufogenin], with 73.6%; and `C/C=C/c1ccc(OC)c(OC)c1` [Methyl isoeugenol], with -12.9%; and `COc1cc(O)c(CC=C(C)C)c(O)c1C(=O)/C=C/c1ccc(O)cc1` [Xanthohumol], with 96.4%. `OCc1ccc(O[C@@H]2O[C@H](CO)[C@@H](O)[C@H](O)[C@H]2O)cc1` [Gastrodin]: the inhibition at 50 µM is 81.5%. In the case of `CC(C)(C)[C@]1(O)CC2OC(=O)CC23C(=O)OC2OC(=O)[C@H](O)C231` (some centres unmarked) [Bilobalide], the inhibition at 50 µM was 1.84%. On to `O=c1c(O)c(-c2ccc(O)c(O)c2)oc2cc(O)cc(O)c12` [Quercetin], for which the inhibition at 50 µM came to 13.7%. Regarding `O=c1c(-c2ccc(O[C@@H]3O[C@H](CO)[C@@H](O)[C@H](O)[C@H]3O)cc2)coc2cc(O)cc(O)c12` [Sophoricoside], the inhibition at 50 µM is -3.53%. For `C=CC(C)(O)CCC=C(C)C` (centres unmarked) [Linalool], the inhibition at 50 µM is -3.9%. As for `CC(=O)O[C@H]1CC(=O)OC(C)(C)[C@@H]2CC(=O)[C@]3(C)[C@H](CC[C@@]4(C)[C@H](c5ccoc5)OC(=O)[C@H]5O[C@]543)[C@@]12C` [Nomilin], the inhibition at 50 µM was found to be 53.6%.

As for `CC1(C)OC(=O)C=C[C@]2(C)[C@H]3CC[C@@]4(C)[C@H](c5ccoc5)OC(=O)[C@H]5O[C@]54[C@]3(C)C(=O)C[C@@H]12` [Obacunone], the inhibition at 50 µM was found to be 14.2%. In the case of `COc1cc2c(=O)c(-c3ccc(O)cc3)coc2cc1O` [Glycitein], the inhibition at 50 µM came to 5.33%. Consider `C=C[C@H]1CN2CC[C@@]3(C(=O)Nc4ccccc43)[C@@H]2C[C@@H]1/C(=C\OC)C(=O)OC` [Isocorynoxeine], for which the inhibition at 50 µM was found to be 33.7%. In the case of `Oc1cc(O)cc(/C=C/c2ccc(O)cc2O)c1` [Oxyresveratrol], the inhibition at 50 µM amounted to 22.8%. Turning to `CCCOC(=O)c1ccc(O)cc1` [Propylparaben], the inhibition at 50 µM is -0.514%. Then `COc1cc2c(c(O)c1OC)-c1c(cc(OC)c(OC)c1OC)C[C@@H](C)[C@@H](C)C2` [Schisanhenol], with 66.6%; and `N#C[C@H](O[C@@H]1O[C@H](CO[C@@H]2O[C@H](CO)[C@@H](O)[C@H](O)[C@H]2O)[C@@H](O)[C@H](O)[C@H]1O)c1ccccc1` [Amygdalin], with 12.3%; and `CC(C)[C@@H](C)/C=C/[C@@H](C)[C@H]1CC[C@H]2C3=CC=C4C[C@@H](O)CC[C@]4(C)[C@H]3CC[C@]12C` [Ergosterol], with 12%. Regarding `COc1ccc(/C=C/C(=O)O)cc1O` [Isoferulic acid], the inhibition at 50 µM is -13.2%. The value for `COC[C@@]12CC[C@H](OC)[C@]34C(C([C@H](OC)[C@H]13)[C@]1(OC(C)=O)[C@H]3[C@@H](OC(=O)c5ccccc5)[C@](O)(C[C@H]34)[C@@H](OC)[C@@H]1O)N(C)C2` [Hypaconitine] was 94.8%; that for `CC[C@]12CCCN3CCc4c(n(c5ccccc45)[C@@](O)(C(=O)OC)C1)[C@@H]32` [Vincamine] was 2.5%; that for `C=C1CCC2CC1C2(C)C` (stereo not drawn) [beta-Pinene] was 14%. On to `COc1cc2c(cc1O)CC[n+]1cc3c(OC)c(OC)ccc3cc1-2` [Jatrorrhizine], for which the inhibition at 50 µM turned out to be 83.3%. Consider `O=c1cc(-c2ccc(O)c(O)c2)oc2c([C@@H]3O[C@H](CO)[C@@H](O)[C@H](O)[C@H]3O)c(O)cc(O)c12` [Orientin], for which the inhibition at 50 µM was determined as 1.09%. Then `COC(=O)[C@@]12OC[C@]34[C@H]([C@@H](O)[C@@H]1O)[C@@]1(C)CC(=O)C(O)=C(C)[C@@H]1C[C@H]3OC(=O)[C@H](OC(=O)CC(C)C)[C@@H]24` [Bruceine A], with 34%; and `C=CCc1ccc(O)c(-c2cc(CC=C)ccc2O)c1` [Magnolol], with -28.9%; and `C[C@H]1[C@H](C)CC[C@]2(C(=O)O)CC[C@]3(C)C(=CC[C@@H]4[C@@]5(C)C[C@@H](O)[C@H](O)[C@@](C)(CO)[C@@H]5[C@H](O)C[C@]43C)[C@H]12` [Madecassic acid], with 8.87%.

As to `CC1=CCC2CC1C2(C)C` (stereo not drawn) [α-Pinene], the inhibition at 50 µM was -0.747%. `COC(=O)C[C@](O)(CCCC(C)(C)O)C(=O)O[C@@H]1C(OC)=C[C@]23CCCN2CCc2cc4c(cc2[C@H]13)OCO4` [Homoharringtonine]: the inhibition at 50 µM worked out at 43.5%. Turning to `CC[C@H]1CN2CC[C@@]3(C(=O)Nc4ccccc43)[C@@H]2C[C@@H]1/C(=C\OC)C(=O)OC` [Isorhynchophylline], the inhibition at 50 µM was 15.1%. Then `CC(C)=CC/C=C(\C)[C@H]1CC[C@]2(C)[C@@H]1[C@H](O)C[C@@H]1[C@@]3(C)CC[C@H](O)C(C)(C)[C@@H]3[C@@H](O[C@@H]3O[C@H](CO)[C@@H](O)[C@H](O)[C@H]3O)C[C@]12C` [Ginsenoside Rh4], with 9.78%. As to `CC(=O)O[C@H]1[C@H](OCCc2ccc(O)c(O)c2)O[C@H](CO[C@@H]2O[C@H](CO)[C@@H](O)[C@H](O)[C@H]2O)[C@@H](OC(=O)/C=C/c2ccc(O)c(O)c2)[C@@H]1OC[C@@H]1O[C@@H](C)[C@H](O)[C@@H](O)[C@H]1O` [Tubuloside A], the inhibition at 50 µM was 10.5%. For `CCC/C=C1\OC(=O)C2=C1CCC=C2` [Ligustilide], the inhibition at 50 µM stood at 39%.

As for `O=C1CCC[C@@H]2[C@H]3CCCN4CCC[C@H](CN12)[C@@H]34` [sophoridine], the inhibition at 50 µM was -7.2%.

As to `C[C@@H]1CC[C@@]2(OC1)O[C@H]1C[C@H]3[C@@H]4CC[C@H]5C[C@@H](O)CC[C@]5(C)[C@H]4CC[C@]3(C)[C@H]1[C@@H]2C` [Tigogenin], the inhibition at 50 µM was -0.724%.

For `Cn1cnc2c1c(=O)[nH]c(=O)n2C` [Theobromine], the inhibition at 50 µM stood at 14.1%.

Regarding `CC(C)OC(=O)c1ccc(O)cc1` [Isopropyl 4-Hydroxybenzoate], the inhibition at 50 µM was -16.3%. In the case of `OC[C@@H](O)[C@H](O)[C@@H](O)CO` [Xylitol], the inhibition at 50 µM is -9.02%.

Turning to `O=C(/C=C/C=C/c1ccc2c(c1)OCO2)N1CCCCC1` [Piperine], the inhibition at 50 µM came to 13.8%. The value for `O=c1c(O[C@@H]2O[C@H](CO)[C@H](O)[C@H](O)[C@H]2O)c(-c2ccc(O)c(O)c2)oc2cc(O)cc(O)c12` [Hyperoside] was 13.9%; that for `COc1cc(CCC(C)=O)ccc1O` [Zingerone] was -5.51%. On to `COc1c(O)cc2c(c1O)[C@@H]1O[C@H](CO)[C@@H](O)[C@H](O)[C@H]1OC2=O` [Bergenin], for which the inhibition at 50 µM was found to be 26.5%. For `C=C[C@]12CN(C)[C@@H]3[C@H]4CO[C@H](C[C@H]41)[C@]1(C(=O)Nc4ccccc41)[C@@H]32` [Gelsemine], the inhibition at 50 µM was determined as 99.1%. In the case of `COc1cc(C=CC(=O)O)cc(OC)c1OC` [3,4,5-Trimethoxycinnamic acid], the inhibition at 50 µM was -0.768%.

For `C[C@H]1[C@H](C)CC[C@]2(C(=O)O)CC[C@]3(C)C(=CC[C@@H]4[C@@]5(C)C[C@@H](O)[C@H](O)[C@@](C)(CO)[C@@H]5CC[C@]43C)[C@H]12` [Asiatic acid], the inhibition at 50 µM is -51%.

`C=C[C@H]1C[N@@]2CC[C@H]1C[C@H]2[C@H](O)c1ccnc2ccc(OC)cc12` [Quinine]: the inhibition at 50 µM was 20.8%. The value for `O=C1OC[C@H]2OC(O)[C@H](O)[C@@H](O)[C@@H]2OC(=O)c2cc(O)c(O)c(O)c2-c2c(O)c(O)c3oc(=O)c4c(c(O)c(O)c5oc(=O)c2c3c54)-c2c1cc(O)c(O)c2O` (mixture of isomers) [Punicalin] was 28.2%; that for `OC[C@H]1O[C@@H](Oc2cc(O)cc(/C=C/c3ccc(O)cc3)c2)[C@H](O)[C@@H](O)[C@@H]1O` [Polydatin] was -0.146%; that for `O=C(O)C1=C[C@@H](O)[C@@H](O)[C@H](O)C1` [Shikimic Acid] was -3.63%.

For the compound `C[C@@H]1O[C@@H](OC[C@H]2O[C@@H](Oc3cc(O)c4c(c3)O[C@H](c3ccc(O)cc3)CC4=O)[C@H](O)[C@@H](O)[C@@H]2O)[C@H](O)[C@H](O)[C@H]1O` [Narirutin], the inhibition at 50 µM was 96.7%. As to `COc1cc2oc(=O)ccc2c(OC)c1C[C@@H](O)C(C)(C)O` [toddalolactone], the inhibition at 50 µM turned out to be 14.2%. Consider `COc1ccc2cc3[n+](cc2c1OC)CCc1cc2c(cc1-3)OCO2` [Berberine Hydrochloride], for which the inhibition at 50 µM came to 29.1%. In the case of `CC[C@]1(O)C[C@H]2CN(CCc3c([nH]c4ccccc34)[C@@](C(=O)OC)(c3cc4c(cc3OC)N(C=O)[C@H]3[C@@](O)(C(=O)OC)[C@H](OC(C)=O)[C@]5(CC)C=CCN6CC[C@]43[C@@H]65)C2)C1` [Vincristine Sulfate], the inhibition at 50 µM came to 46.9%. In the case of `O=P(O)(O)O[C@H]1[C@H](OP(=O)(O)O)[C@@H](OP(=O)(O)O)[C@H](OP(=O)(O)O)[C@@H](OP(=O)(O)O)[C@H]1OP(=O)(O)O` [Phytic acid], the inhibition at 50 µM worked out at 38.6%. `CCOC(=O)c1ccc(O)cc1` [Ethylparaben]: the inhibition at 50 µM is -5.48%. With `COc1c2c(cc3c1-c1c(cc4c(c1OC)OCO4)C[C@H](C)[C@H](C)C3)OCO2` [schisandrin C], the inhibition at 50 µM is 61.2%. Turning to `C[C@]1(OC(=O)/C=C/c2ccccc2)C[C@@H](O)[C@]2(O)C=CO[C@@H](O[C@@H]3O[C@H](CO)[C@@H](O)[C@H](O)[C@H]3O)[C@@H]21` [Harpagoside], the inhibition at 50 µM was -0.596%.

Take `OC[C@H]1O[C@@H](OCCc2ccc(O)cc2)[C@H](O)[C@@H](O)[C@@H]1O` [Salidroside]: the inhibition at 50 µM worked out at 11.5%. In the case of `O=c1c(O[C@@H]2O[C@@H](CO)[C@H](O)[C@H]2O)c(-c2ccc(O)c(O)c2)oc2cc(O)cc(O)c12` [Avicularin], the inhibition at 50 µM worked out at 7.15%. The value for `CC1OC(OC2C(=O)c3c(O)cc(O)cc3OC2c2ccc(O)cc2)C(O)C(O)C1O` (centres unmarked) [Engeletin] was 38.1%; that for `COc1c(O)cc2oc(-c3ccc(O)cc3)cc(=O)c2c1O` [hispidulin] was 41.8%.

These data come from paper PMC7038234, “Screening of Natural Extracts for Inhibitors against Japanese Encephalitis Virus Infection” (Antimicrobial Agents and Chemotherapy, 2020).
